{"source": "patent US20090252750A1", "target": "GPNMB on the surface of glioma cells (D392 MG, D54 MG) (human) (UniProt Q14956)", "experiment": "cell-based or functional assay"}
{"substance": "B308-PE38 immunotoxin (from UniProt P11439 278-389; P11439 406-638)", "values": [{"measurement": "IC50, cytotoxicity assay of antibody-PE38 on D392 MG cells", "value": 0.006, "unit": "µg/mL"}]}
{"substance": "B305-PE38 immunotoxin (from UniProt P11439 278-389; P11439 406-638)", "values": [{"measurement": "IC50, cytotoxicity assay of antibody-PE38 on D392 MG cells", "value": 0.006, "unit": "µg/mL"}]}
{"substance": "L12-PE38 immunotoxin (from UniProt P11439 278-389; P11439 406-638)", "values": [{"measurement": "IC50, cytotoxicity assay of antibody-PE38 on D392 MG cells", "value": 0.02, "unit": "µg/mL"}]}
{"substance": "L04-PE38 immunotoxin (from UniProt P11439 278-389; P11439 406-638)", "values": [{"measurement": "IC50, cytotoxicity assay of antibody-PE38 on D392 MG cells", "value": 0.015, "unit": "µg/mL"}]}
{"substance": "L15-PE38 immunotoxin (from UniProt P11439 278-389; P11439 406-638)", "values": [{"measurement": "IC50, cytotoxicity assay of antibody-PE38 on D392 MG cells", "value": 0.03, "unit": "µg/mL"}]}
